Some of the results follow. Records with an inconclusive call do not appear. No rule for the calls is given here.

This assay in a line: growth inhibition of non-replicating M. tuberculosis (AID 488890).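 Also: plate controls were DMSO cells for no effect and high antibiotic wells for full effect.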 The conditions noted are these: Mycobacterium tuberculosis non-replicating, at 25 µM, stronger effect = higher value.
On to `CCNC(=S)/N=C(\N)N[N+](=O)[O-]`, for which the inhibition – broadly, the relative decrease from the control value, in per cent – was found to be 12.8%.

In the case of `Cc1ccc(NP(=O)(Oc2cccc(C)c2)Oc2cccc(C)c2)nc1`, the inhibition was -18.3%.

Take `CCOC(=O)NC(Sc1ccccc1)C(Cl)(Cl)Cl` (centres undefined): the inhibition was 11.6%.

On to `c1ccc(-c2nn[nH]n2)c(-c2nn[nH]n2)c1`, for which the inhibition is -4.09%.

Regarding `CC(=O)NC(SC(=S)N(CC(C)C)CC(C)C)C(Cl)(Cl)Cl` (centres undefined), the inhibition amounted to 64.1%.

For `Cc1ccc(OP(=O)(Nc2ccccn2)Oc2ccc(C)cc2)cc1`, the inhibition stood at 4.26%.

Regarding `COC(=O)c1cc2c(s1)N=C(c1ccccc1)N(C)P2(=O)N1CCOCC1` (centres undefined), the inhibition worked out at 1.51%.

For the compound `CCC(=O)N1C2C3N(C(=O)CC)C1C1N(C(=O)CC)C(C(N1C(=O)CC)N3C(=O)CC)N2C(=O)CC`, the inhibition is -2.1%.

As to `O=C(OC1CN2CCC1CC2)c1ccccc1` (centres undefined), the inhibition is -4.02%.

Take `CN(C)C(=O)Oc1noc2ccccc12`: the inhibition turned out to be 8.45%.

Regarding `CC(NC(=O)COC(=O)C(O)(c1ccccc1)c1ccccc1)c1ccccc1` (centres undefined), the inhibition stood at 10.7%.

Regarding `Cc1ccccc1OP(=O)(Nc1ccccn1)Oc1ccccc1C`, the inhibition was 24.1%.

As for `CN(C)C1(CNC(=O)c2ccc(Cl)c(S(N)(=O)=O)c2)CCCCC1`, the inhibition is -2.84%.

Take `O=P(Nc1ccccn1)(c1ccc(Br)cc1)c1ccc(Br)cc1`: the inhibition came out at 13.2%.

In the case of `C[C@H]1OP(=O)(Oc2ccccc2)[C@H](O)[C@H](O)[C@H]1N=[N+]=[N-]` (some centres undefined), the inhibition was -0.01%.

Take `O=P(Nc1nc2ccccc2s1)(c1ccccc1)c1ccccc1`: the inhibition came out at 37.7%.

As to `CC(=O)NC(SC(=S)N(C)C)C(Cl)(Cl)Cl` (centres undefined), the inhibition was -4.45%.

With `O=[N+]([O-])c1ncn(CCn2cnc([N+](=O)[O-])n2)n1`, the inhibition was -8.95%.

As for `O=[As](O)(c1ccccc1)c1ccc(O)cc1`, the inhibition was -9.63%.

`C(Cc1nn[nH]n1)Cc1nn[nH]n1`: the inhibition is -6.26%.

Consider `Nc1ccc([As](=O)(O)c2ccc([N+](=O)[O-])cc2)cc1`, for which the inhibition is 60.6%.

Take `O=C(OC1CN2CCC1CC2)c1cccc(Cl)c1` (centres undefined): the inhibition was found to be 14.1%.

For the compound `O=P(Nc1nccs1)(c1ccccc1)c1ccccc1`, the inhibition was determined as 17.8%.

Take `CC(C)C(=O)NC(Sc1ccccc1)C(Cl)(Cl)Cl` (centres undefined): the inhibition is -1.63%.

Regarding `c1nnnn1CCn1cnnn1`, the inhibition is -22.2%.

For `COc1ccc(C2=NCC(CBr)S2)cc1` (centres undefined), the inhibition is 27.4%.

Turning to `CC(=O)N1C2C3N(C(C)=O)C1C1N(C(C)=O)C(C(N1C(C)=O)N3C(C)=O)N2C(C)=O`, the inhibition was -4.28%.

Turning to `O=[N+]([O-])c1cccc2n[nH]nc12`, the inhibition came out at 8.68%.

With `Cc1ccc(NP(=O)(Oc2ccccc2)Oc2ccccc2)nc1`, the inhibition was 14.6%.

For the compound `Nc1ccc([As](=O)(O)c2ccc(N)cc2)cc1`, the inhibition was 50%.

For `CCN(/C(=N/P(=O)(N1CCOCC1)N1CCOCC1)N1CCOCC1)c1ccc(OC)cc1`, the inhibition was found to be 11.5%.

As for `CN(C)C(=O)OCCc1n(C)cc[n+]1C`, the inhibition was -8.96%.

Consider `CC(C)=N/N=C(\N)N[N+](=O)[O-]`, for which the inhibition is -11.5%.

In the case of `CC1CCN(C(=O)Oc2c(Cl)cc(Cl)c3cccnc23)CC1`, the inhibition worked out at 51.7%.

Turning to `O=C(Nc1cc([As](=O)(O)O)ccc1O)c1ccccc1`, the inhibition is 3.7%.

For the compound `CC(C)(C)C(=O)NC(Sc1ccncn1)C(Cl)(Cl)Cl` (centres undefined), the inhibition came out at 36.7%.

On to `O=[N+]([O-])c1ncn(CCn2ncnc2[N+](=O)[O-])n1`, for which the inhibition was -2%.

`O=[N+]([O-])c1cccc(NC2=NCC(CBr)S2)c1` (centres undefined): the inhibition is -5.07%.

Regarding `O=C(O)CNc1ccc([As](=O)(O)O)cc1`, the inhibition was -15.8%.

As to `CC(=O)Nc1ccc([As](=O)(O)O)cc1`, the inhibition amounted to 4.21%.

Take `O=C(O)c1ccccc1[As](=O)(O)O`: the inhibition was -4.4%.

With `CN(C(=O)Cc1ccc(Cl)c(Cl)c1)[C@H]1CCCC[C@@H]1N1CCCC1`, the inhibition is -1.6%.

Take `Cc1ccc(NP(=O)(Oc2ccccc2F)Oc2ccccc2F)nc1`: the inhibition was -0.36%.

With `Cc1cc(SC(NC(=O)c2ccc(F)cc2)C(Cl)(Cl)Cl)ncn1` (centres undefined), the inhibition stood at 46.2%.

Regarding `CCOP(=O)(Nc1ccccc1)OCC`, the inhibition was 2.69%.

On to `O=[N+]([O-])c1cc([N+](=O)[O-])c(CCN2CCOCC2)c([N+](=O)[O-])c1`, for which the inhibition was 76.3%.

As for `CCN(N=Nc1nonc1N)c1nonc1N`, the inhibition was -25.3%.

On to `NC(=O)c1cc([N+](=O)[O-])cc([N+](=O)[O-])c1N`, for which the inhibition is -9.96%.

As for `Cc1ccc(N/C(=N/P(=O)(N2CCOCC2)N2CCOCC2)N2CCOCC2)cc1`, the inhibition is -11%.

For `CN(C(=O)Cc1ccc(Cl)c(Cl)c1)[C@H]1CCCC[C@H]1N1CCCC1`, the inhibition came out at 42%.

`Cc1ccc(OP(=O)(Nc2nccs2)Oc2ccc(C)cc2)cc1`: the inhibition was 16.9%.

Take `COc1ccccc1OP(=O)(Nc1ccc(C)cn1)Oc1ccccc1OC`: the inhibition is -9.09%.

Take `CN1CCCC(OC(=O)C(c2ccccc2)c2ccccc2)C1` (centres undefined): the inhibition is -7.21%.

`Clc1ccc(Cl)c(NC2=NCC(CBr)S2)c1` (centres undefined): the inhibition was found to be 11.7%.

Regarding `Nc1cc(N)c2nonc2c1[N+](=O)[O-]`, the inhibition was -3.33%.

`CC(C)CC(=O)NC(Sc1ccc(Cl)cc1)C(Cl)(Cl)Cl` (centres undefined): the inhibition amounted to 28.7%.

As for `O=C(NC(Sc1ccncn1)C(Cl)(Cl)Cl)c1ccccc1` (centres undefined), the inhibition stood at 32.4%.

As for `Cc1c2non([O-])c-2c(C)[n+](=O)[n+]1[O-]`, the inhibition was found to be 28%.

With `Oc1ccccc1CNc1ccccn1`, the inhibition is -0.12%.
